Results deposited as PubChem BioAssay AID624099 (ICCB-Longwood, 2012).

- Assay: 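Knock-downs relieving repression by E2 of an HPV18 LCR luciferase reporter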 (primary screen)
- Cells: human C33A cervical carcinoma cells (HPV-negative) stably expressing BPV1 E2 and an HPV18 LCR luciferase reporter
- Reagents: siRNA pool against human genes, 40 nM
- Duration: 72 h
- Read-out: 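HPV18 LCR reporter light per well, converted to plate-wise z-scores that exclude control wells, and averaged over triplicate plates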
- Reading the numbers: mean z-score and z-score: higher = stronger reporter signal, weaker E2 silencing
- Hit rule: 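Hit if mean z-score reaches 2 and two or more of three replicate z-scores also reach 2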
The deposit covers about 21,000 reagents; below is a random part of them. 497 of all reagents (2.4%) count as active. 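Higher z means weaker E2 silencing; only reporter increases were scored, and knock-downs that hurt cell survival may mask genuine repressor factors.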 Reagents against one gene are numbered here.

| target gene | reagent no. | mean z-score | z-score, replicate A | z-score, replicate B | z-score, replicate C | call |
| --- | --- | --- | --- | --- | --- | --- |
| OR10C1 (GeneID 442194) | 1 | 1.84 | 1.22 | 2.38 | 1.91 | inactive |
| ECPAS (GeneID 23392) | 1 | 0.13 | 0.06 | 0.41 | -0.08 | inactive |
| GNPTAB (GeneID 79158) | 1 | 0.32 | -0.12 | 0.32 | 0.76 | inactive |
| CDK8 (GeneID 1024) | 1 | 0.27 | -0.05 | 0.25 | 0.6 | inactive |
| NECTIN3 (GeneID 25945) | 1 | -0.04 | -0.08 | 0 | -0.03 | inactive |
| ZNF747 (GeneID 65988) | 1 | -1.06 | -0.97 | -1.31 | -0.9 | inactive |
| S100A4 (GeneID 6275) | 1 | 1.14 | 1.27 | 1.08 | 1.08 | inactive |
| PHLDA2 (GeneID 7262) | 1 | -0.55 | -0.62 | -0.47 | -0.57 | inactive |
| PCDHB15 (GeneID 56121) | 1 | -0.4 | -0.41 | -0.43 | -0.36 | inactive |
| CNTN3 (GeneID 5067) | 1 | 1.64 | 1.45 | 1.59 | 1.86 | inactive |
| HSD17B3 (GeneID 3293) | 1 | -1.33 | -0.89 | -1.35 | -1.74 | inactive |
| GML (GeneID 2765) | 1 | 1.44 | 1.55 | 1.36 | 1.41 | inactive |
| SPDYE8 (GeneID 728524) | 1 | -1.56 | -1.64 | -1.46 | -1.59 | inactive |
| SPDYE8 (GeneID 728524) | 2 | -0.02 | -0.3 | 0.15 | 0.1 | inactive |
| AMOTL1 (GeneID 154810) | 1 | -0.75 | -1.15 | -0.48 | -0.62 | inactive |
| VGLL3 (GeneID 389136) | 1 | -0.7 | -1 | -0.84 | -0.26 | inactive |
| ZNF335 (GeneID 63925) | 1 | 0.96 | 0.29 | 1.23 | 1.36 | inactive |
| UPK2 (GeneID 7379) | 1 | -1.09 | -1.12 | -1 | -1.14 | inactive |
| RPS4Y1 (GeneID 6192) | 1 | 1.02 | 1.26 | 0.9 | 0.89 | inactive |
| SBF1 (GeneID 6305) | 1 | 0.52 | 0.41 | 0.39 | 0.77 | inactive |
| TUBGCP3 (GeneID 10426) | 1 | -0.25 | -0.36 | -0.14 | -0.23 | inactive |
| GJB5 (GeneID 2709) | 1 | -0.59 | -0.65 | -0.65 | -0.47 | inactive |
| MYC (GeneID 4609) | 1 | 0.48 | 0.41 | 0.65 | 0.36 | inactive |
| LINC00661 (GeneID 126536) | 1 | -1.37 | -1.36 | -1.38 | -1.37 | inactive |
| RABGGTA (GeneID 5875) | 1 | -0.61 | -0.17 | -0.87 | -0.79 | inactive |
| PIGQ (GeneID 9091) | 1 | -1.14 | -1.03 | -1.05 | -1.35 | inactive |
| ZFP62 (GeneID 643836) | 1 | -0.46 | -0.62 | -0.73 | -0.04 | inactive |
| TMEM182 (GeneID 130827) | 1 | -0.35 | -0.18 | -0.46 | -0.39 | inactive |
| DIPK2B (GeneID 79742) | 1 | 1.32 | 1.21 | 1.13 | 1.62 | inactive |
| MED13 (GeneID 9969) | 1 | 1.6 | 1.77 | 1.42 | 1.62 | inactive |
| RPP25L (GeneID 138716) | 1 | -1 | -0.73 | -0.95 | -1.32 | inactive |
| DNAH8 (GeneID 1769) | 1 | -0.98 | -1.05 | -0.68 | -1.2 | inactive |
| DNAH8 (GeneID 1769) | 2 | 0.46 | 0.46 | 0.63 | 0.29 | inactive |
| LOC159170 (retired record) (GeneID 159170) | 1 | -0.04 | -0.33 | -0.13 | 0.33 | inactive |
| SLC66A2 (GeneID 80148) | 1 | 0.05 | 0.54 | -0.47 | 0.09 | inactive |
| GORASP2 (GeneID 26003) | 1 | -0.42 | -0.3 | -0.54 | -0.43 | inactive |
| AGXT2 (GeneID 64902) | 1 | -0.59 | -0.52 | -0.3 | -0.96 | inactive |
| LOC400553 (GeneID 400553) | 1 | -0.33 | -0.39 | 0.27 | -0.87 | inactive |
| HS1BP3 (GeneID 64342) | 1 | -0.95 | -0.56 | -1.15 | -1.14 | inactive |
| COX7A1 (GeneID 1346) | 1 | -0.04 | -0.06 | -0.02 | -0.04 | inactive |
| OR2W5 (GeneID 441932) | 1 | -0.29 | -0.24 | -0.26 | -0.37 | inactive |
| PIGB (GeneID 9488) | 1 | 0.78 | 0.97 | 0.65 | 0.71 | inactive |
| LOC387884 (retired record) (GeneID 387884) | 1 | 0.6 | 0.37 | 0.66 | 0.77 | inactive |
| LRP3 (GeneID 4037) | 1 | 0.77 | 0.62 | 0.88 | 0.81 | inactive |
| LINC01548 (GeneID 728409) | 1 | 1.34 | 1.23 | 1.19 | 1.59 | inactive |
| CHCHD4 (GeneID 131474) | 1 | 0.06 | 0.07 | -0.07 | 0.18 | inactive |
| ICA1 (GeneID 3382) | 1 | -0.38 | -0.27 | -0.53 | -0.32 | inactive |
| LNX1 (GeneID 84708) | 1 | 0.42 | 0.46 | 0.18 | 0.61 | inactive |
| COQ2 (GeneID 27235) | 1 | 0.33 | -0.11 | 0.78 | 0.33 | inactive |
| RAVER2 (GeneID 55225) | 1 | 0.15 | -0.1 | 0.55 | -0.01 | inactive |
| VPS4B (GeneID 9525) | 1 | 0.17 | 0.12 | 0.57 | -0.16 | inactive |
| STPG2 (GeneID 285555) | 1 | 0.26 | 0.23 | 0.02 | 0.53 | inactive |
| DPP6 (GeneID 1804) | 1 | -0.71 | -0.85 | -0.79 | -0.5 | inactive |
| CSN1S1 (GeneID 1446) | 1 | 1.16 | 1.33 | 1.07 | 1.09 | inactive |
| PIM1 (GeneID 5292) | 1 | -0.35 | -0.34 | -0.13 | -0.6 | inactive |
| SMPD4BP (GeneID 150776) | 1 | 0.81 | 0.75 | 0.52 | 1.16 | inactive |
| CAMK4 (GeneID 814) | 1 | -0.07 | -0.58 | 0.1 | 0.27 | inactive |

Individual results from the entries so far:
Under “z-score, replicate C”, SPDYE8 (GeneID 728524) #1 reads -1.59
GJB5 (GeneID 2709), z-score, replicate B: -0.65
Under “z-score, replicate C”, MED13 (GeneID 9969) shows 1.62
Under “z-score, replicate A”, DNAH8 (GeneID 1769) #2 has 0.46
For “call”, LOC159170 (retired record) (GeneID 159170) reads inactive
Result of ZFP62 (GeneID 643836) under “z-score, replicate A”: -0.62
